Assay results reported in patent US20100216721A1.

Tests used:
[1] = molecular target: HIV-1 YU2 gp120 (HIV-1 strain YU2), P35961; assay: SPR; peptide over immobilized YU2 gp120
[2] = molecular target: HIV-1 YU2 gp120 (HIV-1 strain YU2), P35961; assay: SPR (Biacore 3000); peptide over immobilized gp120; reference 12p1 on YU2 gp120
[3] = molecular target: HIV-1 YU2 gp120 (HIV-1 strain YU2), P35961; assay: SPR competition: 100 nM YU2 gp120 with HNG-156 over immobilized IgG b6 (CM5 chip); blocked ligand: b6

B1: HNG-124 (peptide)
peptide: RINNIPWSEAMM
modifications: not checked
Q: With B1 as the binder, how does the Kd [1] read?
A: The Kd was 9 nM.

B2: HNG-156 (peptide)
peptide: RINNIPWSEAMM
modifications: not checked
Q: Which results are given for B2?
A: orders of magnitude higher affinity than 12p1 (orders of magnitude) [2]: 3; IC50 (read off the curve) [3]: 60 nM
